Compound potency records, mixed from different reports. Data source: NIAID ChemDB in PubChem.

Shared fields: whole-cell or culture tests; agent: HIV-1; read by: luciferase; read-out: EC50

Rows are shuffled and stem from different studies. a–b is a range or a potency band. Blank or dashed fields: not listed here. ECn: concentration that inhibits the pathogen or its effect by n%.

structure,changes,strain,cell line,setting,value
CSc1cc(F)ccc1Cc1cnc(-c2nc3n(CC(=O)N4C[C@@H](C)O[C@H](C)C4)ccn3c(=O)c2O)s1,QHGS,,HEK 293,,0.5–1 µM
COC(=O)c1cccc(Cn2ccc3ccc(-c4ccc5ccn(Cc6cccc(C(=O)O)c6)c5c4)cc32)c1,,HXB2,TZM-bl,pseudotyped,2 µM
O=C(Cn1cnc2ccccc21)Nc1ccccn1,,UG070,TZM-bl,,389 µM
COc1cnc(C(N)=O)c2[nH]cc(C(=O)C(=O)N3CCN(C(=O)c4ccccc4)CC3)c12,,,HeLa,,≤0.0002 µM
CCCCC1=NC2CC(/C=C/C(=O)NO)=CC=C2N1CCN(CC)CC,,,PBMC,,0.212 µM
O=C(CCC(=O)Nc1ccc(Br)cn1)Nc1ccc(Br)cn1,,IIIB,TZM-bl,,28.03 µM
COc1cc2c(c(OC)c1)[C@@H](N1CCCC1=O)C[C@@H](c1cccc([N+](=O)[O-])c1)N2,,NL4-3-Luc,MT-2,,53.73 µM
Cc1nn2cc1CCCCCC1(C)CCN(CC1)c1c([C@H](OC(C)(C)C)C(=O)O)c(C)nc3cc(nn13)-c1cccc-2c1,,,MT-2,,0.007 µM
CN(C)CC(=O)Nc1ccc(-c2nc(=O)n(C)c3c2oc2ccccc23)cc1,,,C8166,,1.6 µM
Cc1ncc(-c2ccc3c(c2)CCN(c2nccc(-c4cnccn4)n2)C3)c(N2CCC(C)(C)CC2)c1[C@H](OC(C)(C)C)C(=O)O,,NL4-3,MT-2,,0.002 µM
CCCC1CN(C(=O)c2ccccc2)CCN1C(=O)C(=O)c1c[nH]c2c(C(=O)OC)cccc12,,,HeLa + HELA CD4+/CCR5,,<10 µM
Cc1cc2nc3cn2c(c1[C@H](OC(C)(C)C)C(=O)O)N1CCC(C)(CC1)OCCC[C@H](C)Oc1cc(F)ccc1-c1cccc-3c1,,,MT-2,,0.005 µM
COc1cnc(-c2cnccn2)c2[nH]cc(C(=O)C(=O)N3CCN(C(=O)c4ccccn4)[C@@H](C)C3)c12,,,HeLa,,<1 µM
N#CC(=C1CCN(C(=O)C(=O)c2c[nH]c3c(-c4cnccn4)ccnc23)CC1)c1ccccc1,,,HeLa,,<1 µM
O=C(C(=O)N1CCN(C(=Nc2ccccc2)c2ccccc2)CC1)c1c[nH]c2cccc(F)c12,,Luciferase reporter virus,HeLa(CD4+) + HeLa,,<0.5 µM
O=C(Cn1cnc2c([N+](=O)[O-])cccc21)Nc1ccccn1,,IIIB,TZM-bl,,6.7 µM
COc1cnc(N(C)c2ccccn2)c2[nH]cc(C(=O)C(=O)N3CCN(C(=O)c4ccccc4)CC3)c12,,,HeLa,,<1 µM
Cc1nc(CN)c(-c2ccc3c(c2)CCN(c2ncnc4c2oc2ccccc24)C3)c(N2CCC(C)(C)CC2)c1[C@H](OC(C)(C)C)C(=O)O,,NL4-3,MT-2,,0.02 µM
CC(C)(C)OC(=O)C(=O)N1CCN(C(=O)C(=O)c2c[nH]c3c(-c4cnccn4)ncc(Cl)c23)CC1,,,HeLa,,<1 µM
CN(C)S(=O)(=O)/N=C(\c1ccccc1)N1CCN(C(=O)C(=O)c2c[nH]c3cccc(F)c23)CC1,,Luciferase reporter virus,HeLa(CD4+) + HeLa,,>0.5 µM
O=C(Cn1cnc2c(Br)cccc21)Nc1ccccn1,,ADA5,TZM-bl,,76 µM
COc1cnc(-n2ccc(NC(=O)C3OC3C(=O)O)n2)c2[nH]cc(C(=O)C(=O)N3CCN(C(=O)c4ccccc4)CC3)c12,,,HeLa,,<1 µM
C[C@H]1CN(C(=O)c2ccccc2)CCN1C(=O)C(=O)c1c[nH]c2cccc(F)c12,,,HeLa + HELA CD4+/CCR5,,<10 µM
Cc1cc(C)c2ccc(-c3cccc([N+](=O)[O-])c3)nc2c1,,NL4-3-Luc,MT-2,,110 µM
Nc1c(C(=O)NCc2ccc(F)cc2F)c(=O)n(O)c2ncc(CCCCCCO)cc12,+G insertion (GGGGAGT),,HOS,,<0.001 µM
C[C@@H]1CN(C(=O)c2ccccc2)CCN1C(=O)C(=O)c1c[nH]c2cccc(Cl)c12,,,HeLa + HELA CD4+/CCR5,,<10 µM
COc1cnc(-n2cc(C)nn2)c2[nH]cc(C(=O)C(=O)N3CCN(C(=O)c4ccccc4)[C@H](C)C3)c12,,,HeLa,,≤0.0002 µM
CC(C)(C)OC(=O)Nc1cccc(C(=O)N2CCN(C(=O)C(=O)c3c[nH]c4cccc(Cl)c34)CC2)c1,,,HeLa + HELA CD4+/CCR5,,<10 µM
O=C(Cn1ccn2c(=O)c(O)c(-c3ncc(Cc4ccc(F)cc4)s3)nc12)N1CCOCC1,,,HEK 293,,0.001–0.1 µM
CC(C)[C@@H](CO)n1cc(C(=O)O)c(=O)c2nc(Cc3cccc(Cl)c3F)ccc21,,,HeLa,0% human serum,>2.5 µM
Cc1cn(CC(=O)Nc2ccc([N+](=O)[O-])cn2)c(=O)[nH]c1=O,,IIIB,TZM-bl,,17.6 µM
CC[C@@H]1CN(C(=NC#N)c2ccccc2)CCN1C(=O)C(=O)c1c[nH]c2c(-n3ccnn3)ncc(F)c12,,Luciferase reporter virus,HeLa(CD4+) + HeLa,,<0.5 µM
C[C@H]1CN(C(=O)Cn2ccn3c(=O)c(O)c(-c4ncc(Cc5ccc(F)c(Cl)c5)s4)nc23)C[C@H](C)O1,N155H/E92Q,,HEK 293,,0.1–1 µM
COc1ccc2nc(-c3cccc([N+](=O)[O-])c3)ccc2c1,Delta-VSV-Luc,NL4-3,MT-2,pseudotyped,18.57 µM
Cc1nc(NCCCN(C)C)c(-c2ccc3c(c2)CCN(c2ncnc4c2oc2ccccc24)C3)c(N2CCC(C)(C)CC2)c1[C@H](OC(C)(C)C)C(=O)O,,NL4-3,MT-2,,0.01 µM
C[C@@H]1CN(C(=O)c2ccc(Br)o2)CCN1C(=O)C(=O)c1c[nH]c2c(-c3ccc(C(=O)O)cc3)nccc12,,,HeLa,,<1 µM
NC(=O)CCNC[C@H](Cc1ccc(O)cc1)NC[C@H](Cc1ccc(O)cc1)NC[C@H](Cc1ccc(O)cc1)NC[C@@H](N)Cc1ccc(O)cc1,,,HeLa,,19 µM
Nc1c(C(=O)NCc2ccc(F)cc2F)c(=O)n(O)c2ncc(CCS(=O)(=O)c3ccccc3)cc12,,,HOS,,<0.004 µM
COc1cnc(-n2ccnn2)c2[nH]cc(C(=O)C(=O)N3CCC(=C(c4ccccc4)c4n[nH]c(=O)o4)CC3)c12,,,HeLa,,<1 µM
CCN(CC)Cc1cnc2c(C(=O)Nc3ccc4nc[nH]c4c3)cnn2c1,,NL4-3,TZM-bl,,5.4 µM
COc1cc(OC)c2ccc(-c3cccc([N+](=O)[O-])c3)nc2c1,Delta-VSV-Luc,NL4-3,MT-2,pseudotyped,18.86 µM
COC(=O)c1cc(N)c(Nc2ccc(C#N)cc2)cc1Oc1c(C)cc(CCC#N)cc1C,,NL4-3,TZM-bl,,4.32 µM
COc1cc2c(cc1Cc1cccc(Cl)c1F)c(=O)c(C(=O)O)cn2[C@H](CO)C(C)C,AGT (GGGAGT),,HOS,,<0.001 µM
COc1ccc2nc(-c3cccc(N)c3)ccc2c1,,NL4-3-Luc,MT-2,,9.67 µM
CNC(=O)c1cc2ncn(-c3ccc(C#N)cc3)c2cc1Oc1c(C)cc(/C=C/C#N)cc1C,,NL4-3,TZM-bl,,>220 µM
O=[N+]([O-])c1cccc(-c2ccc3ccccc3n2)c1,,NL4-3-Luc,MT-2,,19.66 µM
CN1CCN(C(=O)Cn2ccn3c(=O)c(O)c(-c4ncc(Cc5ccc(F)cc5)s4)nc23)CC1,Q148H/G140S,,HEK 293,,>1 µM
Oc1cc(/C=C/c2cc(O)c(O)c(O)c2)cc(O)c1O,,NL4-3,TZM-bl,,0.29 µM
Cc1cc2nc3cn2c(c1[C@H](OC(C)(C)C)C(=O)O)N1CCC(C)(CC1)OC/C=C\C[C@@H](C)Oc1cc(F)cc(F)c1-c1cccc-3c1,,,MT-2,,0.002 µM
C[C@H]1CN(C(=O)c2ccccc2)CCN1C(=O)C(=O)c1c[nH]c2cc(Cl)ccc12,,,HeLa + HELA CD4+/CCR5,,<10 µM
COc1ncc(OC)c2c(C(=O)C(=O)N3CCC(=Cc4nc(-c5ccccc5)cs4)CC3)c[nH]c12,,,HeLa,,>5 µM
Cc1ccc2c(c1)[C@@H](N1CCCC1=O)C[C@@H](c1cccc([N+](=O)[O-])c1)N2,,NL4-3-Luc,MT-2,,>142 µM
C[C@H]1CN(C(=O)Cn2ccn3c(=O)c(O)c(-c4ncc(Cc5ccc(F)cc5S(C)(=O)=O)s4)nc23)C[C@H](C)O1,QHGS,,HEK 293,,0.5–1 µM
CCC1CN(C(=O)C(=O)c2c[nH]c3c(-c4cnccn4)ncc(OC)c23)CCN1C(=O)c1ccccn1,,,HeLa,,<1 µM
O=C(C(=O)N1CCC(=C(Br)c2ccccc2)CC1)c1c[nH]c2c(Cl)ccnc12,,,HeLa,,<1 µM
O=C(C(=O)N1CCN(C(=O)c2cscn2)CC1)c1c[nH]c2cccc(F)c12,,,HeLa + HELA CD4+/CCR5,,<10 µM
COc1cnc(-c2cnccn2)c2[nH]cc(C(=O)C(=O)N3CCN(C(=N)c4ccccc4)C[C@@H]3C)c12,,Luciferase reporter virus,HeLa(CD4+) + HeLa,,<0.5 µM

The first 7 rows once more:

{"structure": "CSc1cc(F)ccc1Cc1cnc(-c2nc3n(CC(=O)N4C[C@@H](C)O[C@H](C)C4)ccn3c(=O)c2O)s1", "changes": "QHGS", "cell line": "HEK 293", "value": "0.5–1 µM"}
{"structure": "COC(=O)c1cccc(Cn2ccc3ccc(-c4ccc5ccn(Cc6cccc(C(=O)O)c6)c5c4)cc32)c1", "strain": "HXB2", "cell line": "TZM-bl", "setting": "pseudotyped", "value": "2 µM"}
{"structure": "O=C(Cn1cnc2ccccc21)Nc1ccccn1", "strain": "UG070", "cell line": "TZM-bl", "value": "389 µM"}
{"structure": "COc1cnc(C(N)=O)c2[nH]cc(C(=O)C(=O)N3CCN(C(=O)c4ccccc4)CC3)c12", "cell line": "HeLa", "value": "≤0.0002 µM"}
{"structure": "CCCCC1=NC2CC(/C=C/C(=O)NO)=CC=C2N1CCN(CC)CC", "cell line": "PBMC", "value": "0.212 µM"}
{"structure": "O=C(CCC(=O)Nc1ccc(Br)cn1)Nc1ccc(Br)cn1", "strain": "IIIB", "cell line": "TZM-bl", "value": "28.03 µM"}
{"structure": "COc1cc2c(c(OC)c1)[C@@H](N1CCCC1=O)C[C@@H](c1cccc([N+](=O)[O-])c1)N2", "strain": "NL4-3-Luc", "cell line": "MT-2", "value": "53.73 µM"}